We go through 6 compounds from article PMC6336804, “Identification of selective inhibitors of Helicobacter pylori IMPDH as a targeted therapy for the infection” (Scientific Reports, 2019).

Sequences of proteins named here, by UniProt entry; tags and fusion partners are left off.
UniProt P56088, whole entry: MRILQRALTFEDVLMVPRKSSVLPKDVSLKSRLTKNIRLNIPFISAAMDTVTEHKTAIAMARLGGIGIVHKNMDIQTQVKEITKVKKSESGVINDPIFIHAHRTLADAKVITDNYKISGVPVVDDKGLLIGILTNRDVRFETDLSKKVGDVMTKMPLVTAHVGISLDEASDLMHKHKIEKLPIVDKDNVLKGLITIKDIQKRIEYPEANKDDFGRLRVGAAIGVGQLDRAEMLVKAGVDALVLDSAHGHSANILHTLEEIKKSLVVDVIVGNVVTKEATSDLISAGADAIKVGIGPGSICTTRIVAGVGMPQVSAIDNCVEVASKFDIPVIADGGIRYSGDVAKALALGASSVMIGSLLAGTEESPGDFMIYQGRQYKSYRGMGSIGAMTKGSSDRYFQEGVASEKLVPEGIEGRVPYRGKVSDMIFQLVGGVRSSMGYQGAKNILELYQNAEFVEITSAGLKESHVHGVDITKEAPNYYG

The term IC50 denotes the midpoint of a concentration-inhibition curve.

Structures are written as SMILES.

The first experiment addresses HpIMPDH (Helicobacter pylori, UniProt P56088). As to the kind of experiment: HpIMPDH enzyme inhibition assay (NADH fluorescence). The experiment is classed as biochemical. To be noted: Table S3.
For `O=C(Cn1cc(CCc2ccncc2)c2ccccc21)Nc1ccc(Br)cc1`, the “IC50, inhibition profile of indole based compounds” value is “No inhibition”.

Still in this experiment, the particulars now being: read-out: IC50, inhibition profile of indole based compounds; Table S3.
Regarding `O=C(Cn1cc(CCc2ccncc2)c2ccccc21)Nc1ccc(Cl)cc1`, the IC50 turned out to be 9.71 µM.

`O=C(Cn1cc(C(=O)Nc2ccc3ccccc3c2)c2ccccc21)Nc1ccc(Br)cc1`: the IC50 is 30.9 µM.

Turning to `O=C(Cn1cc(C(=O)O)c2ccccc21)Nc1ccc(Cl)cc1`, the IC50 was 14.4 µM.

For the compound `O=C(Cn1cc(C(=O)O)c2ccccc21)Nc1ccc(Br)cc1`, the 50% inhibitory concentration (IC50) was 3.02 µM.

Consider `O=C(Cn1cc(CCc2ccncc2)c2ccccc21)Nc1ccc2ccccc2c1`, for which the IC50 was 5.63 µM.
